Earlier results in publication PMC7941644, “Identification and Development of Therapeutics for COVID-19” (ArXiv, 2021).

System: COVID-19
Design: key: A grade of A indicates that a treatment is considered effective; B that all or most RCTs have shown positive results; C that RCT data are not yet available; D that multiple RCTs have produced negative results
Conditions: not given

Question: Which “Grade (STORM)” value does the source give for C[C@@H]1C[C@H]2[C@@H]3CCC4=CC(=O)C=C[C@]4(C)[C@@]3(F)[C@@H](O)C[C@]2(C)[C@@]1(O)C(=O)CO [dexamethasone, 9α-fluoro-16α-methylprednisolone] here?
Answer: The value was “A”.

Question: With COCCCC/C(=N\OCCN)c1ccc(C(F)(F)F)cc1 [fluvoxamine] as the molecule, how does the “Grade (STORM)” value read?
Answer: The value was “B”.

Same assay, conditions: rating by CSTL STORM; table updated August 20, 2021

Question: For NC(=O)c1nc(F)cnc1O [favipiravir, 6-fluoro-3-hydroxy-2-pyrazinecarboxamide], which “Grade (STORM)” value is on record?
Answer: Its value is “D”.

Question: For CC[C@H](C)[C@H]1O[C@]2(CC[C@@H]1C)C[C@@H]1C[C@@H](C/C=C(\C)[C@@H](O[C@H]3C[C@H](OC)[C@@H](O[C@H]4C[C@H](OC)[C@@H](O)[C@H](C)O4)[C@H](C)O3)[C@@H](C)/C=C/C=C3\CO[C@@H]4[C@H](O)C(C)=C[C@@H](C(=O)O1)[C@]34O)O2 [ivermectin], which “Grade (STORM)” value is on record?
Answer: The value was “D”.

Question: With CCC(CC)COC(=O)[C@H](C)N[P@](=O)(OC[C@H]1O[C@@](C#N)(c2ccc3c(N)ncnn23)[C@H](O)[C@@H]1O)Oc1ccccc1 [remdesivir] as the molecule, how does the “Grade (STORM)” value read?
Answer: The value was “A”.

Question: With “TCZ: humanized monoclonal antibody that binds the insoluble and soluble receptor of IL-6” as the molecule, how does the “Grade (STORM)” value read?
Answer: The value was “A”.
